Results of unrelated studies side by side (data: NIAID ChemDB).

All rows: host cell toxicity; cells: VERO; read-out: CC50

CCn is the concentration with n% toxicity to the cells. Rows are shuffled and stem from different studies. An empty or dashed field is not shown.

SMILES,method,value
CC(=O)c1cn([C@H]2C[C@H](O)[C@@H](CO)S2)c(=O)[nH]c1=O,,351 µM
C=C1CC[C@@H]2[C@](C)(CO)[C@H](O)CC[C@@]2(C)[C@@H]1C/C=C1/C(=O)OC[C@H]1O,crystal violet,76.3 µM
CCCCS(=O)(=O)Nc1ccc2[nH]c(C(=O)NC3CC3)c(C)c2c1,resazurin,>140 µM
C[C@H]1C[C@H]2O[C@@H]2C[C@H](O)/C=C/C(=O)Cc2c(Cl)c(O)cc(O)c2C(=O)O1,,80 µM
CCc1nc2ccccc2n1CCSc1nnc(-c2ccc(Cl)cc2)o1,luminescence,35 µM
CC1(C)CC(=O)c2c(C(F)(F)F)nn(-c3ccc(C(N)=O)c(NC4CCC(O)CC4)c3)c2C1,MTT,13.33 µM
C#Cc1cnc(OC)nc1OC,trypan blue,>100 µM
CCCCNC(=O)c1[nH]c2ccc(NS(=O)(=O)CCCC)cc2c1C,resazurin,>140 µM
C=C[C@]1(C)C[C@@H](OC(=O)CSC(C)(C)CNC(=O)[C@H](N)CC(C)C)[C@]2(C)[C@H](C)CC[C@]3(CCC(=O)[C@H]32)[C@@H](C)[C@@H]1O,MTT,13.96 µg/mL
O=C(c1ccccc1)c1nc2cc(Cl)ccc2s1,,31 µg/mL
CC(C)=CCCC1(C)C=Cc2c(ccc(C(=O)/C=C/c3cc(C=O)ccc3O)c2O)O1,MTT,22.2 µM
COc1cc(OC)c(OC)cc1/C=N/N=C(/N)NO.Cc1ccc(S(=O)(=O)O)cc1,,100 µM
CCCCS(=O)(=O)Nc1ccc2[nH]c(C(=O)N(CC)CC)c(C)c2c1,resazurin,>140 µM
COc1ncc(I)c(OC)n1,trypan blue,>100 µM
C=C1CCC2C(C)(COC(C)=O)C(OC(C)=O)CCC2(C)C1C/C=C1/C(=O)OCC1OC(C)=O,crystal violet,6.4 µM
O=[N+]([O-])c1ccc(NC(=S)Nc2ncc(C3CCC3)o2)cc1,MTT,196 µM
C[C@H]1C[C@H](O)C(Cl)/C=C\C=C\C(=O)Cc2c(Cl)c(O)cc(O)c2C(=O)O1,,750 µM
CC[C@]1(C)C[C@@H](OC(=O)CSC(C)(C)CNC(=O)[C@H](N)CC(C)C)[C@]2(C)[C@H](C)CC[C@]3(CCC(O)[C@H]32)[C@@H](C)[C@@H]1O,MTT,10.45 µg/mL
Nc1nccc2c1nnn2[C@H]1C[C@H](O)[C@@H](CO)O1,trypan blue,>396 µM
C=C[C@]1(C)C[C@@H](OC(=O)CSC(C)(C)CNC(=O)[C@H](N)C(C)C)[C@]2(C)[C@H](C)CC[C@]3(CCC(=O)[C@H]32)[C@@H](C)[C@@H]1O,MTT,15.59 µg/mL
CCc1nc2ccc(C)cc2n1CCCCNc1ccccc1,luminescence,22 µM
CN1CC(OCc2ccc(OCc3ccccc3)cc2)Cn2nc([N+](=O)[O-])cc21,,>128 µM
COc1cc2c(cc1OC)C1=NN(C(=O)Nc3ccc(Cl)cc3)C(c3ccc(F)cc3)C1C2,MTT,>133.6 µM
OC[C@H]1O[C@@H](n2nnc3c(Cl)nccc32)C[C@@H]1O,trypan blue,>368 µM
O=c1[nH]c(=O)n([C@H]2C[C@H](O)[C@@H](CO)S2)cc1C=C(F)F,,>500 µM
Oc1ccccc1Cc1nc2cc(Cl)ccc2s1,,62 µg/mL
OC[C@H]1O[C@@H](n2nnc3ccnc(Cl)c32)[C@H](O)[C@@H]1O,trypan blue,>370 µM
O=C(Nc1ccccc1O)c1cccc2[nH]c(-c3ccncc3)nc12,,18.5 µg/mL
S=C(Nc1cc(Cl)ccn1)Nc1ncc(C2CCC2)o1,MTT,>202.4 µM
Nc1nccc2nn([C@H]3C[C@H](O)[C@@H](CO)O3)nc12,trypan blue,>396 µM
COc1cc(OC)c(/C=N/N=C(/N)NO)c(OC)c1.Cc1ccc(S(=O)(=O)O)cc1,,100 µM
S=C(Nc1cc(Br)cc(Br)n1)Nc1ncc(C2CCC2)o1,MTT,>145 µM
CCc1nc2ccccc2n1CCCCSc1nccs1,luminescence,>50 µM
C=C1CCC2C3(C)COC(C)(C)OC3CCC2(C)C1C/C=C1\C(=O)OCC1O,crystal violet,40.2 µM
CC(O)(c1ccccc1)c1nc2cc(Cl)ccc2o1,,250 µg/mL
CCCCS(=O)(=O)Nc1ccc2[nH]c(C(=O)NC3CC(F)C3)c(C)c2c1,resazurin,>130 µM
OC(c1ccccc1)c1nc2cc(Cl)ccc2o1,,62 µg/mL
Clc1ccc(OC(Cn2cc(C3CCCCC3)nn2)c2ccc(Cl)cc2Cl)cc1,MTT,>12.5 µg/mL
O=[N+]([O-])c1cn2c(n1)SCC(OCc1ccc(OC(F)(F)F)cc1)C2,,>128 µM
Cc1cnc(NC(=S)Nc2ncc(C3CCC3)o2)cc1C,MTT,>207 µM
CCc1nc2ccccc2n1CCCCN1CCOCC1,luminescence,>100 µM
CC[C@]1(C)C[C@@H](OC(=O)CSC(C)(C)CNC(=O)[C@H](N)C(C)C)[C@]2(C)[C@H](C)CC[C@]3(CCC(O)[C@H]32)[C@@H](C)[C@@H]1O,MTT,5.26 µg/mL
O=[N+]([O-])c1cn2c(n1)S(=O)(=O)CC(OCc1ccc(OCc3ccccc3)cc1)C2,,>128 µM
CC(=O)O[C@H]1O[C@@H](SC2=N/C(=C\c3ccccc3)C(=O)N2c2ccccc2)[C@H](OC(C)=O)[C@@H](OC(C)=O)[C@@H]1OC(C)=O,,>100 µM
Nc1nccc2c1nnn2[C@H]1CC[C@@H](CO)O1,trypan blue,>387 µM
Oc1ccccc1Cc1nc2ccccc2o1,,62 µg/mL
COc1ccc2[nH]c3cc(O)c(C=O)cc3c2c1,,>102 µg/mL
Nc1ncnc2c1ncn2[C@H]1C[C@@H](CO)[C@H](O)[C@@H]1O,,>400 µg/mL
COC(=O)[C@H](C)NP(=O)(OCC1C/C1=C/n1cnc2c(N)ncnc21)Oc1ccccc1,,<10 µM
C[C@H]1C/C=C/C(O)C/C=C/C(=O)Cc2c(Cl)c(O)cc(O)c2C(=O)O1,,36 µM
O=c1[nH]c(=O)n([C@H]2C[C@H](O)[C@@H](CO)O2)cc1C#Cc1cc2ccc3cccc4ccc(c1)c2c34,MTT,<80 µM
COc1cc2c(cc1OC)C1=NN(C(=O)Nc3ccc(Cl)cc3)C(c3ccccc3)C1C2,MTT,>139.4 µM
OC[C@H]1O[C@@H](n2nnc3c(Cl)nccc32)[C@H](O)[C@@H]1O,trypan blue,>370 µM
O=C(CCCCCCCCc1ccccc1)c1c(O)cc(O)c([C@@H]2C[C@H](c3ccc(O)cc3)Oc3cc(O)ccc32)c1O.O=C(CCCCCCCCc1ccccc1)c1c(O)cc(O)c([C@@H]2C[C@H](c3ccc(O)cc3)Oc3cc(O)ccc32)c1O,,8.9 µg/mL
CCc1nc2ccccc2n1CCCCNCc1ccccc1,luminescence,>50 µM
CCCCS(=O)(=O)Nc1ccc2[nH]c(C(=O)O)c(C)c2c1,resazurin,>160 µM
Cc1ccc2[nH]c3ccccc3c2c1,,>102 µg/mL
CCCCS(=O)(=O)Nc1ccc2[nH]c(C(=O)N(C)Cc3ccccc3)c(C)c2c1,resazurin,120 µM
C#Cc1c[nH]c(=O)[nH]c1=O,trypan blue,>100 µM
O=[N+]([O-])c1cn2c(n1)SCC(OCc1ccc(OCc3ccccc3)cc1)C2,,>128 µM
O=Cc1ccc2[nH]c3ccccc3c2c1,,101 µg/mL
CCCCS(=O)(=O)Nc1ccc2[nH]c(C(=O)OC(C)C)c(C)c2c1,resazurin,71 µM
Nc1nccc2nn([C@@H]3O[C@H](CO)[C@@H](O)[C@H]3O)nc12,trypan blue,>398 µM
C#Cc1cnc(C(C)=O)nc1C(C)=O,trypan blue,>100 µM
CC(C)=CCCC1(C)C=Cc2c(O)c(C(=O)/C=C/c3cc(C=O)ccc3O)cc(CC=C(C)C)c2O1,MTT,88.6 µM
Clc1ccc(OC(Cn2nnc3ccccc32)c2ccc(Cl)cc2Cl)cc1,MTT,>100 µg/mL
Nc1nccc2c1ncn2[C@@H]1O[C@H](CO)[C@@H](O)[C@H]1O,trypan blue,125 µM
CCCCCCCCCCCC(=O)c1c(O)cc(O)c([C@@H]2C[C@H](c3ccc(O)cc3)Oc3cc(O)ccc32)c1O.CCCCCCCCCCCC(=O)c1c(O)cc(O)c([C@@H]2C[C@H](c3ccc(O)cc3)Oc3cc(O)ccc32)c1O,,16.4 µg/mL
C=C1CCC2C(C)(CO)C(O)CCC2(C)C1CCC1=CCOC1=O,crystal violet,80.3 µM
O=c1[nH]c(=O)n([C@H]2C[C@H](O)[C@@H](CO)S2)cc1Cl,,59 µM
Cc1c(C(=O)NCc2ccccc2)[nH]c2ccc(NS(=O)(=O)CCCCF)cc12,resazurin,>120 µM
O=C(Nc1ccccc1F)c1cccc2[nH]c(-c3cccnc3)nc12,,37 µg/mL
Cc1cccc(NC(=S)Nc2ncc(C3CCC3)o2)n1,MTT,>217 µM
CCCCS(=O)(=O)Nc1ccc2[nH]c(C(=O)NC3CCC3)c(C)c2c1,resazurin,140 µM
O=C(Nc1ccccc1F)c1cccc2[nH]c(-c3ccccn3)nc12,,15.33 µg/mL
Nc1ncnc2c1ncn2[C@@H]1C[C@H](COP(=O)(O)O)[C@@H](O)[C@H]1O,,>400 µg/mL

Repeating the first 11 entries:

CC(=O)c1cn([C@H]2C[C@H](O)[C@@H](CO)S2)c(=O)[nH]c1=O ; value: 351 µM
C=C1CC[C@@H]2[C@](C)(CO)[C@H](O)CC[C@@]2(C)[C@@H]1C/C=C1/C(=O)OC[C@H]1O ; method: crystal violet ; value: 76.3 µM
CCCCS(=O)(=O)Nc1ccc2[nH]c(C(=O)NC3CC3)c(C)c2c1 ; method: resazurin ; value: >140 µM
C[C@H]1C[C@H]2O[C@@H]2C[C@H](O)/C=C/C(=O)Cc2c(Cl)c(O)cc(O)c2C(=O)O1 ; value: 80 µM
CCc1nc2ccccc2n1CCSc1nnc(-c2ccc(Cl)cc2)o1 ; method: luminescence ; value: 35 µM
CC1(C)CC(=O)c2c(C(F)(F)F)nn(-c3ccc(C(N)=O)c(NC4CCC(O)CC4)c3)c2C1 ; method: MTT ; value: 13.33 µM
C#Cc1cnc(OC)nc1OC ; method: trypan blue ; value: >100 µM
CCCCNC(=O)c1[nH]c2ccc(NS(=O)(=O)CCCC)cc2c1C ; method: resazurin ; value: >140 µM
C=C[C@]1(C)C[C@@H](OC(=O)CSC(C)(C)CNC(=O)[C@H](N)CC(C)C)[C@]2(C)[C@H](C)CC[C@]3(CCC(=O)[C@H]32)[C@@H](C)[C@@H]1O ; method: MTT ; value: 13.96 µg/mL
O=C(c1ccccc1)c1nc2cc(Cl)ccc2s1 ; value: 31 µg/mL
CC(C)=CCCC1(C)C=Cc2c(ccc(C(=O)/C=C/c3cc(C=O)ccc3O)c2O)O1 ; method: MTT ; value: 22.2 µM